Data from patent US11382924B2, “Compounds and pharmaceutical uses thereof” (priority 2020, dated 2022).

Legend:
2019-nCoV 3CLPro = 2019-nCoV 3CLPro (Severe acute respiratory syndrome coronavirus 2, UniProt P0DTD1); experiment: 2019-nCoV 3CLPro fluorogenic protease activity assay at 3 μM (35 nM protease, pH 7.0); details: 3 μM sample
[1] = target: SARS-CoV-2 viral 3CL protease (Severe acute respiratory syndrome coronavirus 2, UniProt P0DTD1); details: 1 μM sample
SARS-CoV-2 3CLPro = SARS-CoV-2 3CLPro (Severe acute respiratory syndrome coronavirus 2, UniProt P0DTD1)

**Q.** How did the “Residual Protease Activity (%) 3 μM” value (2019-nCoV 3CLPro) turn out when `O=C(OC[C@H]1O[C@H](OC(=O)c2cc(O)c(O)c(OC(=O)c3cc(O)c(O)c(OC(=O)c4cc(O)c(O)c(O)c4)c3)c2)[C@H](OC(=O)c2cc(O)c(O)c(OC(=O)c3cc(O)c(O)c(OC(=O)c4cc(O)c(O)c(O)c4)c3)c2)[C@@H](OC(=O)c2cc(O)c(O)c(OC(=O)c3cc(O)c(O)c(OC(=O)c4cc(O)c(O)c(O)c4)c3)c2)[C@@H]1OC(=O)c1cc(O)c(O)c(OC(=O)c2cc(O)c(O)c(OC(=O)c3cc(O)c(O)c(O)c3)c2)c1)c1cc(O)c(O)c(OC(=O)c2cc(O)c(O)c(OC(=O)c3cc(O)c(O)c(O)c3)c2)c1` was run?
**A.** Its value is −7%.

**Q.** And the “Residual Protease Activity (%) 1 μM” value [1]?
**A.** The value was 32%.

**Q.** And the IC50 (SARS-CoV-2 3CLPro; Table 34, final DMSO concentration 0.05%)?
**A.** Its IC50 is 421 nM.

**Q.** And the “50% inhibition concentration (IC50) against SARS-CoV-2 3CLPro” value (SARS-CoV-2 3CLPro; samples of Table 34, 50 nM protease, 6 μM substrate)?
**A.** The value was 1.037 µg/mL.
